# Laboratory results reported in the supplement of paper PMC13380429.
# For part of these data: What follows is the remainder of the data, with few or none of the highest values. For part of these data: This list holds what a sample rich in hits left over. This is a selection; strong and weak results do not stand in their true shares.
# What was measured:
# [1] = system: Vero E6 infected with SARS-CoV-2; assay: morphology score (similarity to uninfected cells); higher = more like uninfected cells; conditions: 10 µM; 24 h
# [2] = system: Vero E6 infected with SARS-CoV-2; assay: inhibition of SARS-CoV-2 cytopathic effect; higher = more antiviral protection, active = above 15; conditions: 48 h
# [3] = system: Vero E6 infected with SARS-CoV-2; assay: SARS-CoV-2 infection rate relative to infected DMSO; higher = more infection, active = 60 or less; conditions: 10 µM; 24 h
structure (smiles),measurement,setting,value
CC[C@H](C)[C@H](NC(=O)[C@H](CCC(=O)O)NC(=O)[C@H](CCC(=O)O)NC(=O)[C@H](Cc1ccccc1)NC(=O)[C@H](CC(=O)O)NC(=O)CNC(=O)[C@H](CC(N)=O)NC(=O)CNC(=O)CNC(=O)CNC(=O)CNC(=O)[C@@H]1CCCN1C(=O)[C@H](CCCNC(=N)N)NC(=O)[C@@H]1CCCN1C(=O)[C@H](N)Cc1ccccc1)C(=O)N1CCC[C@H]1C(=O)N[C@@H](CCC(=O)O)C(=O)N[C@@H](CCC(=O)O)C(=O)N[C@@H](Cc1ccc(O)cc1)C(=O)N[C@@H](CC(C)C)C(=O)O [bivalirudin],morphology score,[1],-0.00364
same,inhibition of SARS-CoV-2 cytopathic effect,[2]; 1 nM,inactive: 0.25%
same,inhibition of SARS-CoV-2 cytopathic effect,[2]; 8.33 nM,inactive: -0.71%
same,inhibition of SARS-CoV-2 cytopathic effect,[2]; 100 nM,inactive: -2.7%
same,inhibition of SARS-CoV-2 cytopathic effect,[2]; 833.33 nM,inactive: 2.08%
same,inhibition of SARS-CoV-2 cytopathic effect,[2]; 10000 nM,inactive: 2.93%
same,SARS-CoV-2 infection rate,[3],inactive: 102%
N=C(N)NCCC[C@H](N)C(=O)NCC(=O)N[C@@H](CC(=O)O)C(=O)N[C@@H](CO)C(=O)O,morphology score,[1],0.0886
same,inhibition of SARS-CoV-2 cytopathic effect,[2]; 1 nM,inactive: 2.15%
same,inhibition of SARS-CoV-2 cytopathic effect,[2]; 8.33 nM,inactive: 2.3%
same,inhibition of SARS-CoV-2 cytopathic effect,[2]; 100 nM,inactive: 8.92%
same,inhibition of SARS-CoV-2 cytopathic effect,[2]; 833.33 nM,active: 16.3%
same,inhibition of SARS-CoV-2 cytopathic effect,[2]; 10000 nM,inactive: 4.7%
same,SARS-CoV-2 infection rate,[3],inactive: 97.5%
C[C@@H](N)C(=O)N[C@@H](CO)C(=O)N[C@H](C(=O)N[C@H](C(=O)N[C@H](C(=O)N[C@@H](CC(N)=O)C(=O)N[C@@H](Cc1ccc(O)cc1)C(=O)N[C@H](C(N)=O)[C@@H](C)O)[C@@H](C)O)[C@@H](C)O)[C@@H](C)O [adaptavir],morphology score,[1],0.151
same,inhibition of SARS-CoV-2 cytopathic effect,[2]; 1 nM,inactive: -1.5%
same,inhibition of SARS-CoV-2 cytopathic effect,[2]; 8.33 nM,inactive: -0.88%
same,inhibition of SARS-CoV-2 cytopathic effect,[2]; 100 nM,inactive: -1.41%
same,inhibition of SARS-CoV-2 cytopathic effect,[2]; 833.33 nM,inactive: -0.86%
same,inhibition of SARS-CoV-2 cytopathic effect,[2]; 10000 nM,inactive: -1.27%
same,SARS-CoV-2 infection rate,[3],inactive: 93%
